Assay results reported in US11407715B2, “Substituted indoline derivatives as dengue viral replication inhibitors” (JANSSEN PHARMACEUTICALS, INC., priority 2017, dated 2022).
The source's definition of the ratio is not given here.

Tests used:
Assay type in all cases: cell-based, Dengue virus
[1] = test system: DENV-3 strain H87; assay: Tetravalent RT-qPCR assay, serotype 3; conditions: RT-qPCR serotype 3 H87; selectivity index
Method: (§1) The antiviral activity of the compounds of the invention was tested against DENV-1 strain TC974#666 (NCPV), DENV-2 strain 16681, DENV-3 strain H87 (NCPV) and DENV-4 strain H241 (NCPV) in a RT-qPCR assay. Therefore, Vero cells were infected with either DENV-1, or -2, or -3, or -4 in the presence or absence of test compounds. At day 3 post-infection, the cells were lysed and cell lysates were used to prepare cDNA of both a viral target (the 3′UTR of DENV; Table 2) and a cellular reference gene (β-actin, Table 2). Subsequently, a duplex real time PCR was performed on a Lightcycler480 instrument. The generated Cp value is inversely proportional to the amount of RNA expression of these targets. Inhibition of DENV replication by a test compound results in a shift of Cp's for the 3′UTR gene. On the other hand, if a test compound is toxic to the cells, a similar effect on β-actin expression will be observed. The comparative ΔΔCp method is used to calculate ECs50, which is based on the relative gene expression of the target gene (3′UTR) normalized with the cellular housekeeping gene (β-actin). In addition, CC50 values are determined based on the Cp values acquired for the housekeeping gene β-actin.
(§2) The culture medium consisted of minimal essential medium supplemented with 2% of heat-inactivated fetal calf serum, 0.04% gentamycin (50 mg/mL) and 2 mM of L-glutamine. Vero cells, obtained from ECACC, were suspended in culture medium and 75 μL/well was added in 96-well plates (10000 cells/well), which already contain the antiviral compounds. […] In addition, each plate contains wells which are assigned as virus controls (containing cells and virus in the absence of compound) and cell controls (containing cells in the absence of virus and compound). Once the cells were added in the plates, the plates were incubated in a fully humidified incubator (37° C., 5% CO2) until the next day. Dengue viruses serotype-1, 2, 3 and 4 were diluted in order to obtain a Cp of ˜22-24 in the assay. Therefore, 25 μL of virus suspension was added to all the wells containing test compound and to the wells assigned as virus control. In parallel, 25 μL of culture medium was added to the cell controls. Next, the plates were incubated for 3 days in a fully humidified incubator (37° C., 5% CO2). After 3 days, the supernatant was removed from the wells and the cells were washed twice with ice-cold PBS (˜100 μL). The cell pellets within the 96-well plates were stored at −80° C. for at least 1 day. Next, RNA was extracted using the Cells-to-CT™ lysis kit, according to the manufacturer's guideline (Life Technologies). The cell lysates can be stored at −80C or immediately used in the reverse transcription step.
(§3) In preparation of the reverse transcription step, mix A (table 3A) was prepared and 7.57 μL/well was dispensed in a 96-well plate. After addition of 5 μL of the cell lysates, a five minute denaturation step at 75° C. was performed (table 3B). Afterwards, 7.43 μL of mix B was added (table 3C) and the reverse transcription step was initiated (table 3D) to generate cDNA.
(§4) Finally, a RT-qPCR mix was prepared, mix C (table 4A), and 22.02 μL/well was dispensed in 96-well LightCycler qPCR plates to which 3 μL of cDNA was added and the qPCR was performed according to the conditions in table 4B on a LightCycler 480.
(§5) Using the LightCycler software and an in-house LIMS system, dose response curves for each compound were calculated and the half maximal effective concentration (EC50) and the half maximal cytotoxic concentration (CC50) were determined (Tables 5-8).

[2] = test system: DENV-2 strain 16681; assay: Tetravalent RT-qPCR assay, serotype 2; conditions: RT-qPCR serotype 2 16681; selectivity index
Method: as §1, §2, §3, §4, §5

[3] = test system: DENV-4 strain H241; assay: Tetravalent RT-qPCR assay, serotype 4; conditions: RT-qPCR serotype 4 H241; selectivity index
Method: as §1, §2, §3, §4, §5

[4] = test system: DENV-1 strain TC974#666; assay: Tetravalent RT-qPCR assay, serotype 1; conditions: RT-qPCR serotype 1 TC974#666; selectivity index
Method: as §1, §2, §3, §4, §5

SMILES	SI [1]	SI [2]	SI [3]	SI [4]
COc1cc(NC(C(=O)N2CCc3ccc(OC(F)(F)F)cc32)c2ccc(Cl)cc2)cc(OCC2CC(C(=O)O)C2)c1 (stereo not shown) [Compound 10B]	>1370	>27400	>57	>18700
COc1cc(NC(C(=O)N2CCc3ccc(OC(F)(F)F)cc32)c2ccc(Cl)cc2)cc(OC2CC(C(=O)O)C2)c1 (stereo not shown) [Compound 8B]	>7020	>54100	8240	>38900
COc1cc(NC(C(=O)N2CCc3cc(F)c(OC(F)(F)F)cc32)c2ccc(Cl)cc2)cc(OCC2CC(C(=O)O)C2)c1 (stereo not shown) [Compound 30A]	>840	>65700	399	>54900
COc1cc(NC(C(=O)N2CCc3ccc(OC(F)(F)F)cc32)c2ccc(Cl)cc2)cc(OCC(C)CC(=O)O)c1 (single isomer, unassigned) [Compound 4D]	>727	>15600	73	>7140
COc1cc(NC(C(=O)N2CCc3cc(F)c(OC(F)(F)F)cc32)c2ccc(Cl)cc2)cc(OCC2CC(C(=O)O)C2)c1 (stereo not shown) [Compound 31A]	>791	>11600	445	>6090
COc1cc(NC(C(=O)N2CCc3cc(OC)c(C(F)(F)F)cc32)c2ccc(Cl)cc2)cc(OCCC(C)C(=O)O)c1 (single isomer, unassigned) [Compound 20D]	>178	>7660	>21	>1820
COc1cc(NC(C(=O)N2CCc3ccc(OC(F)(F)F)cc32)c2ccc(Cl)cc2OC)cc(OCCC(C)(C)C(=O)O)c1 (single isomer, unassigned) [Compound 18B]	>281	>4590	148	>2220
COc1cc(NC(C(=O)N2CCc3cc(OC)c(C(F)(F)F)cc32)c2ccc(Cl)cc2)cc(OC2CC(C(=O)O)C2)c1 (stereo not shown) [Compound 23B]	>6770	>51700	2230	>18200
COc1cc(NC(C(=O)N2CCc3ccc(OC(F)(F)F)cc32)c2ccc(Cl)cc2)cc(OCC2CC(C(=O)O)C2)c1 (stereo not shown) [Compound 11B]	>1650	>22400	273	>11800
COc1cc(NC(C(=O)N2CCc3cc(OC)c(Cl)cc32)c2ccc(Cl)cc2)cc(OC2CC(C(=O)O)C2)c1 (single isomer, unassigned) [Compound 32B]	>2870	>35800	295	>10300
COc1cc(NC(C(=O)N2CCc3ccc(OC(F)(F)F)cc32)c2ccc(Cl)cc2)cc(OCC2(F)CC2C(=O)O)c1 (stereo not shown) [Compound 28BB]	>1680	>19900	>58	>29800
COc1cc(NC(C(=O)N2CCc3ccc(OC(F)(F)F)cc32)c2ccc(Cl)cc2)cc(OCC2(F)CC2C(=O)O)c1 (stereo not shown) [Compound 29AB]	>264	>5180	118	>5680
COc1cc(NC(C(=O)N2CCc3cc(OC)c(C(F)(F)F)cc32)c2ccc(Cl)cc2)cc(OCC2CC(C(=O)O)C2)c1 (stereo not shown) [Compound 25B]	>190	>6080	202	>1210
COc1cc(NC(C(=O)N2CCc3ccc(OC(F)(F)F)cc32)c2ccc(Cl)cc2)cc(OC23CC(C(=O)O)(C2)C3)c1 (single isomer, unassigned) [Compound 9B]	>203	>2680	372	>2080
COc1cc(NC(C(=O)N2CCc3cc(OC)c(C(F)(F)F)cc32)c2ccc(Cl)cc2)cc(OCC2CC2C(=O)O)c1 (stereo not shown) [Compound 22BB]	>245	>9450	126	>1740
COc1cc(NC2CC(C(=O)O)C2)cc(NC(C(=O)N2CCc3ccc(OC(F)(F)F)cc32)c2ccc(Cl)cc2)c1 (single isomer, unassigned) [Compound 33C]	>185	>4630	9.8	>3500
COc1cc(NC(C(=O)N2CCc3ccc(OC(F)(F)F)cc32)c2ccc(Cl)cc2)cc(OCC2CC2C(=O)O)c1 (stereo not shown) [Compound 6BB]	>1320	>23700	205	>24100
COc1cc(CCCCC(=O)O)cc(NC(C(=O)N2CCc3ccc(OC(F)(F)F)cc32)c2ccc(Cl)cc2)c1 (single isomer, unassigned) [Compound 14A]	>584	>5890	510	>6140
COc1cc(NC(C(=O)N2CCc3cc(OC)c(C(F)(F)F)cc32)c2ccc(Cl)cc2)cc(OCC2CC2C(=O)O)c1 (stereo not shown) [Compound 22AB]	>4430	>46400	2890	>15700
COc1cc(NC(C(=O)N2CCc3ccc(OC(F)(F)F)cc32)c2ccc(Cl)cc2OC)cc(OCCC(C)C(=O)O)c1 (single isomer, unassigned) [Compound 17D]	>541	>24100	168	>15400
COc1cc(NC(C(=O)N2CCc3ccc(OC(F)(F)F)cc32)c2ccc(Cl)cc2)cc(OCCC(C)C(=O)O)c1 (single isomer, unassigned) [Compound 1C]	>1300	>15300	427	>11000
COc1cc(NC(C(=O)N2CCc3ccc(OC(F)(F)F)cc32)c2ccc(Cl)cc2)cc(OCC2CC2C(=O)O)c1 (stereo not shown) [Compound 6AB]	>15300	>187753	>425	>133413
COc1cc(NC(C(=O)N2CCc3ccc(OC(F)(F)F)cc32)c2ccc(Cl)cc2)cc(OCC(C)CC(=O)O)c1 (single isomer, unassigned) [Compound 4C]	>1660	>51900	>73	>61000
COc1cc(NC(C(=O)N2CCc3ccc(OC(F)(F)F)cc32)c2ccc(Cl)cc2)cc(OCCCCC(=O)O)c1 (single isomer, unassigned) [Compound 13B]	>1350	>23900	323	>10400
COc1cc(CCCC(=O)O)cc(NC(C(=O)N2CCc3ccc(OC(F)(F)F)cc32)c2ccc(Cl)cc2)c1 (single isomer, unassigned) [Compound 15B]	>525	>4310	456	>6280
COc1cc(NC(C(=O)N2CCc3cc(OC)c(C(F)(F)F)cc32)c2ccc(Cl)cc2)cc(OCCC(C)C(=O)O)c1 (single isomer, unassigned) [Compound 20C]	>249	>19200	>60	>4540
COc1cc(NC(C(=O)N2CCc3ccc(OC(F)(F)F)cc32)c2ccc(Cl)cc2)cc(OC2CC(C(=O)O)C2)c1 (stereo not shown) [Compound 7B]	>1810	>30600	582	>23200
COc1cc(NC(C(=O)N2CCc3ccc(OC(F)(F)F)cc32)c2ccc(Cl)cc2)cc(OCC2(CC(=O)O)CC2)c1 (single isomer, unassigned) [Compound 5A]	>170	>3220	206	>1930
